Anti-infective test results gathered from many reports (values: NIAID ChemDB through PubChem).

Shared fields: growth or infection tests; organism: Respiratory syncytial virus; read-out: EC50

ECn: concentration that inhibits the pathogen or its effect by n%. An empty or dashed field is not shown. Lines come from different laboratories, so protocols vary.

structure,strain,cell line,method,result
NC(=O)c1[nH]nc([C@@H]2O[C@H](CO)[C@@H](O)[C@H]2O)c1O,58-7,HeLa,cytopathic effect,0.1 µg/mL
C=C(C)n1c(=O)n(Cc2nc3ccccc3n2CCC(=N)N=[N+]=[N-])c2ccccc21,Long (subtype A),HEP-2,cytopathic effect,0.008 µM
Nc1ncnc2c1ccn2[C@@H]1O[C@H](CO)[C@@H](O)[C@H]1O,S-8,HeLa,cytopathic effect,1 µg/mL
NC(=O)c1ncn([C@@H]2O[C@H](CO)[C@@H](O)[C@H]2O)n1,LONG,HEP-2,plaque count,10.5 µM
Cc1nnnn1/N=C/c1ccc(O)c(C(c2ccc(O)cc2)c2cc(/C=N/n3nnnc3C)ccc2O)c1,A2,HEP-2,-,0.0014 µM
CCOC(c1cccc(C)n1)n1c(NC2CCN(CCN)CC2)nc2ccccc21,-,HELA/M,MTT,0.013 µM
CC(C)CCn1c(Cn2c(=O)n(Cc3ccc(P(=O)(O)O)cc3)c3ccccc32)nc2ccccc21,Long (subtype A),HEP-2,cytopathic effect,0.03 µM
Cc1ccc(O)c(Cn2c(NC3CCN(CCN)CC3)nc3c(C)cccc32)n1,-,HELA/M,MTT,0.00016 µM
C#Cc1c(C(N)=O)ncn1[C@@H]1O[C@H](CO)[C@@H](O)[C@H]1O,TYPE A/LONG,HeLa,plaque count,0.35 µg/mL
Cc1ccc(O)c(Cn2c(NC3CCN(CCN)CC3)nc3ccccc32)n1,-,HELA/M,MTT,0.0004 µM
COc1cc(-c2oc3cc(O)cc(O)c3c(=O)c2O)ccc1O,LONG,HeLa,cytopathic effect,>4 µg/mL
CC(C)CCn1c(Cn2c(=O)n(Cc3ccc(C(=O)N[C@@H](CP(=O)(O)O)C(=O)O)cc3)c3ccccc32)nc2ccccc21,Long (subtype A),HEP-2,cytopathic effect,0.03 µM
c1ccc2c(c1)CSSC2,clone 6 (RD3-0028-resistant),HeLa,cytopathic effect,>244.4 µM
Nc1cc2[nH]cnc2c(=O)[nH]1,LONG,HeLa,cytopathic effect,2.23 µg/mL

A second listing of 2 rows from above:

structure | strain | cell line | method | result
c1ccc2c(c1)CSSC2 | clone 6 (RD3-0028-resistant) | HeLa | cytopathic effect | >244.4 µM
NC(=O)c1ncn([C@@H]2O[C@H](CO)[C@@H](O)[C@H]2O)n1 | LONG | HEP-2 | plaque count | 10.5 µM